Results on one substance are retold here after patent US6518061.

Protein sequences, listed by entry. Tags and fused reporters are not part of them. Lines headed by an entry give the natural chain unless they say otherwise; changes in a name come on top.
UniProt P35225: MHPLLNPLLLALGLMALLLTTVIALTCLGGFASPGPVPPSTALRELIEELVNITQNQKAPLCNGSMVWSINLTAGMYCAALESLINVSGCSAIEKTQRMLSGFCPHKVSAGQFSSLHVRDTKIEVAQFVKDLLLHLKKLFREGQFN

For this assay, the target named is IL-13 receptor (IL-13R) on human tumor cells (human). Kind of assay: cell-based or functional assay.

“hIL-13-PE4E (from UniProt P35225 33-146; P11439 26-638)” yielded a cytotoxic activity, fold better than hIL-13-PE38QQR of 2 fold.
